Like-named read-outs stand apart in the source and are kept apart here. Marks after values point to notes of the source that are not given here.
Experiments:
PfcProRS = PfcProRS (Plasmodium falciparum, UniProt Q8I5R7); experiment: TR-FRET ligand displacement assay with tracer MAT379, PfcProRS; type: binding
P. falciparum Dd2-2D4 = conditions: for EC50: read-out: EC50 against Dd2-2D4 wildtype parasites, ABS P. falciparum, tested form: HBr
[1] = test system: halofuginone-induced (HFG-induced) P. falciparum; conditions: compound had <50% growth inhibition
[2] = read-out: PfcProRS (KD [nM]) +proline, 100 μM Pro
[3] = read-out: PfcProRS (KD [nM]) −, no proline, no ATP
[4] = read-out: KD for PfcProRS, absence of ATP, tested form: HBr
[5] = read-out: PfcProRS (KD [nM]) +proline, 100 μM Pro, tested form: HBr

Chains of the proteins cited; added tags and fusions are not shown.
UniProt Q8I5R7, whole entry: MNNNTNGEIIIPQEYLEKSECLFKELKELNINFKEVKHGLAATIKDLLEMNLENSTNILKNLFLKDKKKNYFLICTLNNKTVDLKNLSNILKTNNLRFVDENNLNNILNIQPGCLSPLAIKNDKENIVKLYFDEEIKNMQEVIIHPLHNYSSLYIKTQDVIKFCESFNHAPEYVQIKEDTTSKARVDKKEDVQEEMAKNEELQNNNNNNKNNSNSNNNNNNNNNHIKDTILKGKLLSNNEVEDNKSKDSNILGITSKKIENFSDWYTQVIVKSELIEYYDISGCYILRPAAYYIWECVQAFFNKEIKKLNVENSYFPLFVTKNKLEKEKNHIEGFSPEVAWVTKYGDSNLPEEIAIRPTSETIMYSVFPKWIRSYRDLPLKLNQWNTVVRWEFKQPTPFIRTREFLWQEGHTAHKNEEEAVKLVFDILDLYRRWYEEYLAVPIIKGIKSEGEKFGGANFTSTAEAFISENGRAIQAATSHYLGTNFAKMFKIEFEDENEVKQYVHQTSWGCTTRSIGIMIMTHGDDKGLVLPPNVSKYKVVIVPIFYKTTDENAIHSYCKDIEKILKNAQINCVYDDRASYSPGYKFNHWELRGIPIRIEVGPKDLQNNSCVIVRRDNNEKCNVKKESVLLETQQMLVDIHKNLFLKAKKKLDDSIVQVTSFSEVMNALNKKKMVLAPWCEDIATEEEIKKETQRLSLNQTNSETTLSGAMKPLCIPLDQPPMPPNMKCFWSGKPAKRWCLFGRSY

Row | Structure (SMILES) | Kd (PfcProRS; [2]) | Kd (PfcProRS; [3]) | percent growth at 1 μM (Dd2 wt) (P. falciparum Dd2-2D4; 1 μM, compound had <50% growth inhibition) | percent growth at 1 μM (Halofuginone-induced) [1] | Kd (PfcProRS; [4]) | Kd (PfcProRS; [5]) | Kd (PfcProRS; read-out: PfcProRS (KD [nM]) −, no proline, no ATP, tested form: HBr) | EC50 (P. falciparum Dd2-2D4)
1 | CC(C)(C)OC(=O)N1CCC[C@H](OC(=O)NS(=O)(=O)NC2CCN(C(=O)Nc3nccnc3C(=O)NC3Cc4ccccc4C3)CC2)[C@H]1CC(=O)Cn1cnc2cc(Br)c(Cl)cc2c1=O (relative stereo) | 179 nM | 227 nM | 72% †† | 98% †† | – | – | – | –
2 | CC(C)(C)OC(=O)N1CCC[C@H](OC(=O)NS(=O)(=O)NCC2CCN(C(=O)Nc3nccnc3C(=O)NC3Cc4ccccc4C3)CC2)[C@H]1CC(=O)Cn1cnc2cc(Br)c(Cl)cc2c1=O (relative stereo) | 279 nM | 455 nM | – | – | – | – | – | –
3 | O=C(C[C@H]1NCCC[C@@H]1OC(=O)NS(=O)(=O)NC1CCN(C(=O)Nc2nccnc2C(=O)NC2Cc3ccccc3C2)CC1)Cn1cnc2cc(Br)c(Cl)cc2c1=O (relative stereo) | – | – | – | – | 0.821 nM | 0.772 nM | 0.821 nM | 0.0187 µM
4 | O=C(C[C@H]1NCCC[C@@H]1OC(=O)NS(=O)(=O)NCC1CCN(C(=O)Nc2nccnc2C(=O)NC2Cc3ccccc3C2)CC1)Cn1cnc2cc(Br)c(Cl)cc2c1=O (relative stereo) | – | – | – | – | 0.68 nM | 0.729 nM | – | 0.0187 µM
